The values that follow come from publication PMC11260460, “A Plasmodium apicoplast-targeted unique exonuclease/FEN exhibits interspecies functional differences attributable to an insertion that alters DNA-binding”.

The exact form of at least one protein or probe is not confirmed. For some of these results: Negatives hold for the conditions tested. Protein sequences can lack the tags named with them. For some of these results: Weaker means in comparison with the reference protein, sequence or condition of that experiment.

The target in data set [1] is T1, PbExo (Plasmodium berghei ANKA) (UniProt A0A509AFJ3).
T1 sequence (looked up): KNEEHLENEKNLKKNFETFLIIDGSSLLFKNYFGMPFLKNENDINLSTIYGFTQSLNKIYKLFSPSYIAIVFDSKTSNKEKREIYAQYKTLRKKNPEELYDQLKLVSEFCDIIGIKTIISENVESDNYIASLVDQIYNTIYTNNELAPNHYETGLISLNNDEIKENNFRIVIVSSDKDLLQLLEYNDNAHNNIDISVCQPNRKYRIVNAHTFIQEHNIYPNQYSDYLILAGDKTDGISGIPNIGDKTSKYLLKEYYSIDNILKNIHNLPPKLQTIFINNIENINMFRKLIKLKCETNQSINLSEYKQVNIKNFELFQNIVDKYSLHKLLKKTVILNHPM
Description: EMSA. To be noted: 2 mM Mg2+, EMSA: 400 nM FAM-DNA, 500 mM NaCl, 10 mM DTT, 1 mg/ml BSA, 10% glycerol, 2 mM MgCl2, 30 min on ice, 6% native PAGE, recombinant protein, residues 115-453, protein details: C-terminal 6xHis. (In general: A gel shift assay detects complexes by their altered migration in electrophoresis.)

In data set [2] the target is T2, PfExo (Plasmodium falciparum 3D7) (UniProt O96139).
T2 sequence (looked up): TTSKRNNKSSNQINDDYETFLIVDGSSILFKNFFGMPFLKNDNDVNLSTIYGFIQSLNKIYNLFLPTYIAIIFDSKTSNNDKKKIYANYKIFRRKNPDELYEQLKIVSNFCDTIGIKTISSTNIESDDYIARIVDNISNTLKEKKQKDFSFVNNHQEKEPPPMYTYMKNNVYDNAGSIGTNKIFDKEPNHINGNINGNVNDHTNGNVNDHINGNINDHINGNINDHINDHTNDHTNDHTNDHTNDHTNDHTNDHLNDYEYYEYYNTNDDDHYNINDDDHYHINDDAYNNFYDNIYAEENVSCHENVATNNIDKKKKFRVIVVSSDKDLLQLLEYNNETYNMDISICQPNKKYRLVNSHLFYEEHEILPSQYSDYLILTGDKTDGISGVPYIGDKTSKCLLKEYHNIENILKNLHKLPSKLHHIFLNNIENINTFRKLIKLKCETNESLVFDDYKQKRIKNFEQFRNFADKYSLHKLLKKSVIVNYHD
Description: EMSA. To be noted: 2 mM Mg2+, EMSA: 400 nM FAM-DNA, 500 mM NaCl, 10 mM DTT, 1 mg/ml BSA, 10% glycerol, 2 mM MgCl2, 30 min on ice, 6% native PAGE, recombinant protein, residues 91-577, protein details: C-terminal 6xHis.

On to “AAAACGTCAACTAGCTTCTCAAACACCTCATATATCTTAA (double strand) [Blunt-end dsDNA (40 bp)]”, for which the binding result is on record as “no binding” in data set [1] (1-10 uM protein, label: 3' 6-FAM on strand 1) and “binds” in data set [2] (label: 3' 6-FAM on strand 1).

For the sequence “CTAGTGTACATGCA / AAAACGTCAACTAGCTTCTCAAACACCTCATATATCTTAA / TTAAGATATATGAGGTGTTTGAGAAGCTAGTTGACGTTTTATGCATGTACACTAG [1 nt-gapped dsDNA]”, the binding result in data set [1] (shift at higher concentration than PfExo) is “binds more weakly”; in data set [2], “binds”.
